These results are taken from patent US11767303B2, “Compounds and methods for inhibiting viral replication and methods of treating and preventing flaviviral infections” (priority 2020, dated 2023).

By UniProt entry, the sequences of proteins in these tests, tags left out. Residues count along the entry.
UniProt P29990, 1476-1654 limits assumed: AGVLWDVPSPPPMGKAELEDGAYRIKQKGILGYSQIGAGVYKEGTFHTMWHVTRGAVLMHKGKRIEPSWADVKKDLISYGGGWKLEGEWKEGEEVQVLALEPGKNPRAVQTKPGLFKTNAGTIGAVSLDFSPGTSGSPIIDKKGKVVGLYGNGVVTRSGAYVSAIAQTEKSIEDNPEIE

For data set [1], the system named is DENV2. Nature of the data set: Viral titer (plaque) reduction assay, DENV2 in A549 cells. Particulars: read-out: EC50-DN2, Table 4, preliminary SAR. It counts as cell-based, Dengue virus serotype 2.
In data set [2] the test system is ZIKV. Nature of the data set: Viral titer reduction assay, ZIKV in A549 cells. Type of data set: cell-based, Zika virus. Conditions: read-out: EC50-ZK, Table 4, preliminary SAR.
Data set [3] can be described thus: Aqueous solubility. It counts as physicochemical.
Data set [4] deals with DENV2 NS2B-NS3 protease (Dengue virus type 2, UniProt P29990). Nature of the data set: Protease inhibition assay (FRET peptide substrate). It counts as biochemical, Dengue virus serotype 2. Particulars: read-out: IC50-pro(DN2); Table 4, preliminary SAR.
A short description of data set [5]: LogP. It counts as physicochemical.

As for `CN1CCC(Oc2ccc(Cl)cc2C(=O)Nc2ccc3c(c2)S(=O)(=O)C=C3)CC1`, the EC50 in data set [1] amounted to 0.8 µM; in data set [2] it was 2 µM. Besides, the aqueous solubility entry in data set [3] is reported as “significantly improves the aqueous solubility”. In data set [4], the IC50 was 26 µM. Further, the LogP in data set [5] stood at 2.62.
